A mixed list of measured activities; the numbers were collected in NIAID ChemDB.

Shared fields: whole-cell or culture tests; species: HIV-1

Lines come from different laboratories, so protocols vary. ECn is the concentration giving n% inhibition of infection, replication or growth. Blank or dashed fields: not listed here.

smiles,changes,measure,strain or isolate,cells,method,value
CS(=O)(=O)c1ccc(NC(=O)c2ccccc2SSc2ccccc2C(=O)Nc2ccc(S(C)(=O)=O)cc2)cc1,-,EC50,-,CEM,cytopathic effect / XTT,14 µM
Cc1cccc(C(C)c2c(C(C)C)c(=O)[nH]c(=O)n2COCc2ccccc2)c1,-,EC50,IIIB,MT-4,MTT,0.23 µM
O=C(O)C[C@@H](NC(=O)c1ccccc1SSc1ccccc1C(=O)N[C@H](CC(=O)O)C1CCCCC1)C1CCCCC1,-,EC50,IIIB,CEM,cytopathic effect / XTT,4.3 µM
COc1ccc(C2ON=C3c4cc(OC)c(OC)cc4CC32)cc1OC,-,EC50,IIIB,MT-4,MTT,>11.73 µM
Cc1ncc(-c2ccc(OCC3CC=CC3)cn2)c(N2CCC(C)(C)CC2)c1[C@H](OC(C)(C)C)C(=O)O,-,EC50,NL4-3,MT-2,luminescence,0.0009 µM
O=C(O)CCCCNC(=O)c1ccccc1SSc1ccccc1C(=O)NCCCCC(=O)O,-,EC50,IIIB,CEM,cytopathic effect / XTT,1.7 µM
CCOC(=O)c1cc(C(=O)c2ccc(F)cc2)n2ccc(C(=O)NCc3ccccn3)cc12,-,EC50,NL4-3,H9,ELISA,54.4 µM
COc1ccc(S(=O)(=O)N(CC2CCCC2)C(=O)C(=O)C(=O)N(CC2CCCC2)S(=O)(=O)c2ccccc2)cc1,-,EC50,IIIB,CEM,p24,<1 µM
COc1cc2c(cc1OC)C1=NOC(c3cc(OC)c(OC)c(OC)c3)C1C2,-,EC50,IIIB,MT-4,MTT,>13.47 µM
Nc1nccc2c1ncn2[C@H]1C=C[C@@H](CO)O1,-,EC90,IIIB,MT-4,syncytia,>100 µM
O=C(N[C@@H](Cc1ccccc1)C(=O)C(F)(F)CN(Cc1ccccc1)S(=O)(=O)c1ccccc1)O[C@H]1CCOC1,-,EC90,IIIB,CEM,p24,1 µM
COC(=O)[C@H](CO)NC(=O)c1ccccc1SSc1ccccc1C(=O)N[C@@H](CO)C(=O)OC,-,EC50,IIIB,CEM,cytopathic effect / XTT,2.34 µM
O=C(O)CCCCCCCCCCCCCNC(=O)C(CO[C@@H]1O[C@H](CO)[C@H](O)[C@H](O)[C@H]1O)NC(=O)CCC(=O)O,-,EC50,IIIB,MT-4,cytopathic effect / MTT,>100 µM
O=C(NC(Cc1ccccc1)C(=O)C(=O)C(=O)N(CC1CCCC1)S(=O)(=O)c1ccccc1)O[C@H]1CCOC1,-,EC50,IIIB,CEM,p24,<1 µM
Cc1cc(Cl)ccc1OCCN(C)c1ccc(-c2cnc(C)c([C@H](OC(C)(C)C)C(=O)O)c2N2CCC(C)(C)CC2)cn1,-,EC50,NL4-3,MT-2,luminescence,0.004 µM
CCOC(=O)c1cc(C(=O)c2ccc(N)cc2)n2ccc(C(=O)NCc3ccccn3)cc12,-,EC50,NL4-3,H9,ELISA,108.7 µM
CC(C)c1c(C(C)c2ccc(F)cc2)n(COCc2ccccc2)c(=O)[nH]c1=O,-,EC50,IIIB,MT-4,MTT,3.91 µM
COc1cc2c(cc1OC)C1=NOC(c3cccs3)C1C2,-,EC50,IIIB,MT-4,MTT,>11.73 µM
C=C(C)[C@@H]1CC[C@]2(C(=O)OC[C@H]3OC(n4cc(C)c(OC(=O)OCC)nc4=O)C[C@@H]3N=[N+]=[N-])CC[C@]3(C)[C@H](CC[C@@H]4[C@@]5(C)CC[C@H](O)C(C)(C)[C@@H]5CC[C@]43C)[C@@H]12,-,EC50,IIIB,MT-4,-,0.017 µM
CC(C)(C)OC(=O)NC(Cc1ccccc1)C(=O)C(=O)C(=O)N(CC1CCCC1)S(=O)(=O)c1ccccc1,-,EC50,IIIB,CEM,p24,<1 µM
C=CCOC(=O)[C@H](CC(C)C)NC(=O)c1ccccc1SSc1ccccc1C(=O)N[C@@H](CC(C)C)C(=O)OCC=C,-,EC50,IIIB,CEM,cytopathic effect / XTT,25 µM
O=C(O)CCCCCCCCCCCCC(=O)NC(CO[C@@H]1O[C@H](CO)[C@H](O)[C@H](O)[C@H]1O)C(=O)NCCO,-,EC50,LAI,CEM + CEM-SS,cytopathic effect / MTT,>100 µM
CCOC(=O)c1cc(C(=O)NCc2cccnc2)n2ccc(C(=O)c3ccco3)cc12,-,EC50,NL4-3,H9,ELISA,55.2 µM
COCCCCCOc1ccc(-c2cnc(C)c([C@H](OC(C)(C)C)C(=O)O)c2N2CCC(C)(C)CC2)nc1,-,EC50,NL4-3,MT-2,luminescence,0.0014 µM
NC(=O)C(NC(=O)c1ccccc1SSc1ccccc1C(=O)NC(C(N)=O)C(N)=O)C(N)=O,-,EC50,IIIB,CEM,cytopathic effect / XTT,>100 µM
COCCC(C)Oc1ncc(-c2cnc(C)c([C@H](OC(C)(C)C)C(=O)O)c2N2CCC(C)(C)CC2)cc1F,-,EC50,NL4-3,MT-2,luminescence,0.0044 µM
CCOC(=O)c1cc(C(=O)c2ccccc2)n2ccc(C(=O)NCc3ccc4ccccc4c3)cc12,-,EC50,NL4-3,H9,ELISA,20.1 µM
COC(=O)c1ccccc1SSc1ccccc1C(=O)OC,-,EC50,-,CEM,cytopathic effect / XTT,>9.3 µM
Nc1ccn([C@H]2O[C@@H](CO)CC2(F)F)c(=O)n1,-,EC50,LAV,PBMC,-,>100 µM
CCOC(=O)c1cc(C(=O)c2ccccc2)n2ccc(C(=O)N[C@@H](Cc3c[nH]c4ccccc34)C(=O)OC)cc12,-,EC50,NL4-3,H9,ELISA,103.2 µM
COc1ccc(S(=O)(=O)N(CC(O)CN(Cc2ccccc2)C(=O)O[C@@H]2CCOC2)CC2CCCC2)cc1,-,EC50,IIIB,CEM,p24,<1 µM
C=C(C)[C@@H]1CC[C@]2(C(=O)O)CC[C@]3(C)[C@H](CC[C@@H]4[C@@]5(C)CC[C@H](OC(=O)CCC(=O)OC[C@H]6OC(n7cc(C)c(=O)[nH]c7=O)C[C@@H]6N=[N+]=[N-])C(C)(C)[C@@H]5CC[C@]43C)[C@@H]12,-,EC50,IIIB,MT-4,-,0.015 µM
Cc1ccccc1C(C)c1c(C)c(=O)[nH]c(=O)n1COCc1ccccc1,E138K,EC50,IIIB,MT-4,MTT,71.63 µM
Cc1ncc(-c2ccc(OCCOc3ccc(F)cc3)nc2)c(N2CCC(C)(C)CC2)c1[C@H](OC(C)(C)C)C(=O)O,-,EC50,NL4-3,MT-2,luminescence,0.0017 µM
O=c1[nH]c(=O)n([C@@H]2O[C@@H](CO)CC2(F)F)cc1I,-,EC50,LAV,PBMC,-,>100 µM
COc1cc2c(cc1OC)C1=NOC(c3c(Cl)cccc3Cl)C1C2,-,EC50,IIIB,MT-4,MTT,>53.2 µM
O=C(N[C@@H](CC1CCCCC1)C(=O)O)c1ccccc1SSc1ccccc1C(=O)N[C@@H](CC1CCCCC1)C(=O)O,-,EC50,IIIB,CEM,cytopathic effect / XTT,2.45 µM
CCCCCCCCCCCCCC(=O)NCC(C(=O)CCCCCCCCCCCCC)C(=O)NCCNC(=O)C(O)C(O[C@@H]1O[C@H](CO)[C@H](O)[C@H](O)[C@H]1O)C(O)CO,-,EC50,IIIB,MT-4,cytopathic effect / MTT,>100 µM
O=C(O)CNC(=O)c1ccccc1SSc1ccccc1C(=O)NCC(=O)O,-,EC50,IIIB,CEM,cytopathic effect / XTT,51.3 µM
O=c1[nH]cnc2c1ncn2C1OC(CO)CC1(F)F,-,EC50,LAV,PBMC,-,>100 µM
CCC[C@@H](CC(=O)O)NC(=O)c1ccccc1SSc1ccccc1C(=O)N[C@@H](CCC)CC(=O)O,-,EC50,IIIB,CEM,cytopathic effect / XTT,3.2 µM
COc1ccc(S(=O)(=O)N(CC(C)C)C[C@@H](O)CCN2CCCC[C@H]2C(=O)NC(C)(C)C)cc1,-,EC90,IIIB,CEM,p24,1 µM
O=C(NC(CC1CCCC1)C(=O)O)c1ccccc1SSc1ccccc1C(=O)NC(CC1CCCC1)C(=O)O,-,EC50,IIIB,CEM,cytopathic effect / XTT,8.3 µM
Cc1cn([C@H]2O[C@@H](CO)CC2(F)F)c(=O)[nH]c1=O,-,EC50,LAV,PBMC,-,>100 µM
CC(C)(C)NC(=O)c1ccccc1SSc1ccccc1C(=O)NC(C)(C)C,-,EC50,-,CEM,cytopathic effect / XTT,58 µM
Cc1ccccc1C(C)(O)c1c(C)c(=O)[nH]c(=O)n1COCc1ccccc1,-,EC50,IIIB,MT-4,MTT,>175 µM
Cc1ncc(-c2ccc(NCCOc3ccc(F)cc3C#N)cn2)c(N2CCC(C)(C)CC2)c1[C@H](OC(C)(C)C)C(=O)O,-,EC50,NL4-3,MT-2,luminescence,0.0794 µM
O=C(Nc1ccc(Br)cc1)c1ccccc1SSc1ccccc1C(=O)Nc1ccc(Br)cc1,-,EC50,-,CEM,cytopathic effect / XTT,17 µM

A second listing of 6 rows from above:

smiles,changes,measure,strain or isolate,cells,method,value
CC(C)(C)OC(=O)NC(Cc1ccccc1)C(=O)C(=O)C(=O)N(CC1CCCC1)S(=O)(=O)c1ccccc1,-,EC50,IIIB,CEM,p24,<1 µM
CC(C)c1c(C(C)c2ccc(F)cc2)n(COCc2ccccc2)c(=O)[nH]c1=O,-,EC50,IIIB,MT-4,MTT,3.91 µM
O=C(O)C[C@@H](NC(=O)c1ccccc1SSc1ccccc1C(=O)N[C@H](CC(=O)O)C1CCCCC1)C1CCCCC1,-,EC50,IIIB,CEM,cytopathic effect / XTT,4.3 µM
NC(=O)C(NC(=O)c1ccccc1SSc1ccccc1C(=O)NC(C(N)=O)C(N)=O)C(N)=O,-,EC50,IIIB,CEM,cytopathic effect / XTT,>100 µM
COc1cc2c(cc1OC)C1=NOC(c3cc(OC)c(OC)c(OC)c3)C1C2,-,EC50,IIIB,MT-4,MTT,>13.47 µM
COc1cc2c(cc1OC)C1=NOC(c3c(Cl)cccc3Cl)C1C2,-,EC50,IIIB,MT-4,MTT,>53.2 µM